Source: ChEMBL document CHEMBL3988442, “University of Dundee, Small-Polar-MMV Screening Library” (2021).

Mtb cholesterol medium: 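Growth of Mycobacterium tuberculosis over 4 days (cholesterol / DPPC medium with tyloxapol); the read-out is not stated. Concentration: 500 µM. Higher reads as more growth inhibition (inferred: compounds with an IC50 in retests scored well above the rest). About 18,000 compounds were tested under these conditions; 5% (about 900) showed 50% or more at least once.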
Mtb glucose medium: 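Growth of Mycobacterium tuberculosis over 3 days (7H9 medium with glucose and tyloxapol); the read-out is not stated. Compounds at 500 µM. Direction is inferred from retests: higher values go with more growth inhibition. Size under these conditions: about 18,000 compounds, about 1,400 of them at 50% or above in at least one test.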

Values are the deposited “Percent Effect”, in %. The controls that fix the scale are not given in the record; negative values are as filed. This is part of a subset picked to be rich in strong results.

With NC1CC12CCC(F)(F)CC2 (stereo unspecified) the screen gave Mtb glucose medium: 12.5%. Result for O=C(c1cccs1)N1CCCN(Cc2cscn2)CC1 was Mtb glucose medium: 41.69%. With COC(=O)N(C)CC(=O)NCc1ccccc1 the screen gave Mtb glucose medium: 13.25%. With COc1cc(F)c(C(=O)NCC2CCCCO2)c(F)c1 (stereo unspecified) the screen gave Mtb glucose medium: 11.56%.

Result for N#Cc1c(CCCN)nn(-c2ccccc2)c1N was Mtb cholesterol medium: 8.793%. For CC(NS(=O)(=O)c1cnn(C)c1)c1ccncc1 (stereo unspecified) the result was Mtb glucose medium: -29.19%. For CNCC1CCCN(C(=O)c2cccc(C)c2F)C1 (stereo unspecified) the result was Mtb cholesterol medium: -1.872%. For CN(C)C(=O)NC1CCCNC1 (stereo unspecified) the result was Mtb cholesterol medium: -13.92%.

Result for Cn1ncnc1NC(=O)CCc1ccc(F)cc1 was Mtb glucose medium: -1.47%. For COc1ccc2[nH]c(CNC(=O)CNC(N)=O)cc2c1 the result was Mtb glucose medium: 21.54%. CN(C)S(=O)(=O)CCCS(=O)(=O)N1CCC(C)(CN)C1 (stereo unspecified) gave Mtb glucose medium: 3.825%. CCCc1cc(-c2nc3c([nH]2)CCCNC3=O)on1 gave Mtb glucose medium: 8.368%.

Result for CCN(CC)C(=O)CCNC(=O)NC1(C)CCC1 was Mtb cholesterol medium: -5.125%. With CS(=O)(=O)c1cccc(Oc2nccnc2C#N)c1 the screen gave Mtb cholesterol medium: 13.8%. Result for CN(C)C(=O)N1CCN(c2ncccc2C#N)CC1 was Mtb glucose medium: 34.6%. For CN(CCCOc1ccc(F)cc1)CC(=O)NC(N)=O the result was Mtb cholesterol medium: -14.47%.

CNCc1nc(C)cs1 gave Mtb glucose medium: -1.791%. With COC(C(=O)NCC1(C)COC1)c1ccccc1 (stereo unspecified) the screen gave Mtb cholesterol medium: -3.658%. For Cc1n[nH]cc1CNC(CS(C)(=O)=O)c1ccccc1 (stereo unspecified) the result was Mtb glucose medium: 15.1%. Nc1ccc(C(F)(F)F)nn1 gave Mtb cholesterol medium: 6.979%; Mtb glucose medium: 4.933%.

With Cc1nn(C)c(Cl)c1C(=O)NCCCN(C)S(C)(=O)=O the screen gave Mtb cholesterol medium: -11.86%. CCCNC(=O)CN(C)Cc1ccco1 read Mtb cholesterol medium: 34.68%. CSCC[C@H](N)C(=O)N1CCOC2(CCC2)C1 read Mtb cholesterol medium: -11.53%. With CC(Cc1ccco1)NC(=O)Cn1ccc(=O)[nH]c1=O (stereo unspecified) the screen gave Mtb cholesterol medium: 9.397%.

With NCCOc1ncc(C(F)(F)F)cc1Cl the screen gave Mtb cholesterol medium: 31.97%; Mtb glucose medium: 49.15%. For CCOCCC(=O)N1CCCC(O)(C(F)(F)F)C1 (stereo unspecified) the result was Mtb cholesterol medium: -6.424%. NCCc1n[nH]c(=O)n1-c1ccc(Cl)cc1 read Mtb glucose medium: 15.82%. CCC(N)C(=O)N1CCN(c2ccncc2Cl)CC1 (stereo unspecified) read Mtb cholesterol medium: -7.738%; Mtb glucose medium: 2.085%.

With Cc1ccc(S(=O)(=O)CCCS(=O)(=O)N(C)C)c(C)c1 the screen gave Mtb cholesterol medium: 18.78%. COc1cc(NC(=O)NCc2nncn2C)ccc1Br gave Mtb glucose medium: 54.48%. Result for Cc1ccccc1C(=O)NC1CCN(CCCO)CC1 was Mtb glucose medium: -8.04%. With CCc1noc(CS(=O)(=O)C(C)C(=O)NC2CC2)n1 (stereo unspecified) the screen gave Mtb glucose medium: 11.32%.

For Cc1cc(NC(=O)NCC2CCS(=O)(=O)C2)no1 (stereo unspecified) the result was Mtb glucose medium: -11.5%. CC(=O)Nc1ccc(F)c(C(=O)OCC2CCCO2)c1 (stereo unspecified) read Mtb glucose medium: 32.66%. CN(C)C(=O)CN1CCCC1c1ccsc1 (stereo unspecified) read Mtb cholesterol medium: -4.747%; Mtb glucose medium: 9.319%. With CSc1cncc(NCCOc2cccnc2)n1 the screen gave Mtb glucose medium: 37.66%.

For O=C(NC1CCc2ccccc21)c1cc[nH]n1 (stereo unspecified) the result was Mtb glucose medium: 31.09%. Result for Cn1cc(Br)c(=O)c(NC(=O)c2cccc(C#N)c2)c1 was Mtb cholesterol medium: -8.72%. CNCCOc1ccccc1OC gave Mtb glucose medium: 15.71%. CN(CCCS(C)(=O)=O)C(=O)c1cccc(F)c1Cl read Mtb glucose medium: 16.34%.

For Cc1cc2cc(C(=O)N3CC[C@@H](N)[C@H](O)C3)ccc2o1 the result was Mtb cholesterol medium: 2.06%. Result for CCOC(=O)CN(C)c1ccc2nnnn2n1 was Mtb glucose medium: -0.8419%. For CC(NS(=O)(=O)N(C)C)c1ccccc1 (stereo unspecified) the result was Mtb cholesterol medium: 7.168%; Mtb glucose medium: 17.43%. Cc1ccc2c(n1)OCCN2C(=O)c1cnn(C)c1C gave Mtb cholesterol medium: 9.044%.

2 of the entries, repeated:

{"compound": "O=C(NC1CCc2ccccc21)c1cc[nH]n1", "stereo": "stereo unspecified", "Mtb glucose medium": 31.09}
{"compound": "N#Cc1c(CCCN)nn(-c2ccccc2)c1N", "Mtb cholesterol medium": 8.793}